## Percent effect of library compounds

The values are deposited in ChEMBL (CHEMBL3988442, “University of Dundee, Small-Polar-MMV Screening Library” (2021)).

Values are the deposited “Percent Effect”, in %. The controls that fix the scale are not given in the record; negative values are as filed. Many other results are left out here, so strong results are more common than in the screen. A dash means the value is not listed here; it may have been measured.

Mtb glucose medium: 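Growth of Mycobacterium tuberculosis over 3 days (7H9 medium with glucose and tyloxapol); the read-out is not stated. Concentration: 500 µM. Higher reads as more growth inhibition (inferred: compounds with an IC50 in retests scored well above the rest). Of about 18,000 compounds tested this way, about 1,400 (7.9%) reached 50% or more in at least one test.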
Mtb cholesterol medium: 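Growth of Mycobacterium tuberculosis over 4 days (cholesterol / DPPC medium with tyloxapol); the read-out is not stated. Compounds at 500 µM. Higher reads as more growth inhibition (inferred: compounds with an IC50 in retests scored well above the rest). About 18,000 compounds were tested under these conditions; 5% (about 900) showed 50% or more at least once.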

| SMILES | Mtb glucose medium | Mtb cholesterol medium |
|---|---|---|
| `CN(C)S(=O)(=O)CCCS(=O)(=O)N1CCC(C)(CN)C1` (stereo not drawn) | 3.825% | - |
| `CNC(=O)c1csc(Br)c1` | 20.78% | - |
| `CNCC1CCN(C(=O)c2cc(Br)c[nH]2)C1` (stereo not drawn) | 45.74% | 42.08% |
| `CC1=CCN(Cc2ccc(N(C)C)nc2)CC1` | -66.43% | - |
| `Cc1ncsc1CCN` | 10.65% | - |
| `CC(C)C(NCC(N)=O)c1ccc(F)cc1` (stereo not drawn) | 57.41% | - |
| `CCC(C)Oc1cccc(NC(=O)NCCO)c1` (stereo not drawn) | 37.84% | - |
| `CCn1nccc1NC(=O)c1ccccc1` | 3.88% | - |
| `CCOc1ccc(NC(=O)NC2CCN(C)CC2)cc1` | 0.09022% | - |
| `O=C(CN1CCNCC1)NCCSc1ccc(Cl)cc1` | 71.6% | 60.84% |
| `O=C(Nc1ncccc1O)c1sccc1OC(F)F` | -1.475% | - |
| `CN(Cc1cc(Cl)cn1C)C(=O)c1cnn(C)c1` | -1.258% | - |
| `COc1ccccc1C(=O)N1CC[C@H](N)C1` | 0.3489% | - |
| `CC(=O)N(Cc1noc(C(C)C)n1)C1CCNC1` (stereo not drawn) | 10.77% | - |
| `CCN1CCN(Cc2cc(C(C)=O)ccc2OC)CC1` | 56.03% | - |
| `c1ccc(Oc2cccc(NCc3csnn3)c2)nc1` | 64.56% | - |
| `CCCN(C(=O)c1cscn1)C1CCNCC1` | 7.021% | - |
| `c1cc(C2CNCCO2)nc(N2CCCC2)n1` (stereo not drawn) | 24.42% | - |
| `Cc1ccc2nc(COCC(=O)NCCN)[nH]c2c1` | - | 7.496% |
| `CCC(Nc1cccc(OC)c1)C(=O)NCCCN` (stereo not drawn) | 44.44% | - |
| `CC(C)Cn1cncc1CNC(=O)CN1CCOCC1` | 9.13% | - |
| `CCc1noc(CC2CCNCC2)n1` | 2.115% | - |
| `N#Cc1cccc(CS(=O)(=O)N[C@H]2CCCNC2)c1` | 9.475% | - |
| `Cn1ccc(C2CCCCN2)n1` (stereo not drawn) | -11.78% | - |
| `CN1CC2(CCN(CCOCCO)CC2)OC1=O` | - | 9.466% |
| `CSCc1nc(CN)cs1` | 14.91% | - |
| `Cc1nn(CCNCCS(C)(=O)=O)c(C)c1Br` | 8.548% | - |
| `CCC(=O)c1cccc(S(=O)(=O)NCC(C)(C)N)c1` | 30.5% | - |
| `CN(CC(C)(C)S(C)(=O)=O)S(=O)(=O)c1ccccc1Cl` | 25.03% | - |
| `CC(O)CN1CCN(C(=O)c2cc(Br)c[nH]2)CC1` (stereo not drawn) | 23.62% | 18.96% |
| `O=C(NCCO)NCc1ccncc1OCC(F)(F)F` | 0.6981% | - |
| `COC(=O)NCC(=O)NC1CCCCNC1=O` (stereo not drawn) | - | 2.145% |
| `Cc1cc(C(=O)NC(C)(CO)CO)nc2ccccc12` | -0.04366% | - |
| `COCC(=O)N1CCN(C)Cc2ccccc21` | - | -6.164% |
| `COc1ccc(-n2c(CCN)n[nH]c2=O)cc1OC` | 6.859% | - |
| `CC(C)CN(CC(N)=O)CC(=O)NC1CC1` | -12.98% | - |
| `O=C(Nc1ccccc1N1CCCC1=O)C1CCC1` | 7.971% | - |
| `Cc1ccc(NC(=O)CC(C)C)cc1` | -6.701% | - |
| `N#Cc1c(N2C(=O)C=CC2=O)sc2c1CCCC2` | - | -0.4977% |
| `O=C(Nc1cc(Cl)ccn1)C1CC1` | - | 30.7% |
| `COC(=O)CN(C(=O)c1ccc(Cl)cn1)C1CCCC1` | - | 9.789% |
| `CCCn1nccc1C(=O)N1CCn2cncc2C1` | -0.4258% | - |
| `CC1(C)CN(CC2CCCCO2)CCO1` (stereo not drawn) | - | 0.65% |
| `CSc1ccccc1NC(=O)CCn1cnc(C#N)n1` | - | 61.22% |
| `CC(C)n1c(CO)nc2ccccc21` | - | 4.59% |
| `N[C@@H]1C[C@H]1c1cccc(F)c1` | 33.72% | - |
| `CN(C)c1ccc(N)nc1` | -393.6% | - |
| `NC(=O)C1CNCCO1` (stereo not drawn) | - | 3.995% |
| `COCCn1cc(C(F)(F)F)ccc1=O` | - | -20.29% |
| `CC(C)C(O)CCNC(=O)Cc1cccc(O)c1` (stereo not drawn) | 66.05% | - |
| `C=C(C)CNC(=O)Nc1ccn(-c2ncccc2Cl)n1` | -7.725% | - |
| `NC(c1ccccc1)c1c[nH]cn1` (stereo not drawn) | - | 11.79% |
| `CC(C)CNc1cc(CN(C)C)ccn1` | 7.806% | - |
| `COC(=O)c1ccc(NCC(=O)NC(N)=O)cc1` | 83.3% | 91.23% |
| `CCc1nnc(CN2CCOC3(CCCC3)C2)o1` | 58.36% | - |

The last 4 entries again:

NC(c1ccccc1)c1c[nH]cn1 (stereo not drawn) gave Mtb cholesterol medium: 11.79%.
CC(C)CNc1cc(CN(C)C)ccn1 gave Mtb glucose medium: 7.806%.
COC(=O)c1ccc(NCC(=O)NC(N)=O)cc1 gave Mtb glucose medium: 83.3%; Mtb cholesterol medium: 91.23%.
CCc1nnc(CN2CCOC3(CCCC3)C2)o1 gave Mtb glucose medium: 58.36%.